The text below walks through data of patent publication US20260104399A1, “A PROCESS FOR ASSESSING BIODEGRADABILITY OF COMPLEX ORGANIC MIXTURES” (ABOCA S.P.A. SOCIETÀ AGRICOLA, priority 2022, published 2026).

Data set [1] relates to microfauna of the inoculum (activated sludge and river water). The data set can be described thus: Semiquantitative UHPLC-qToF evaluation (Relative Ratio, percentage of reduction) of residual main components after RBT. Further details: species or system Aspidisca cicada, Zoothamnium, Rotiferi, Euglyphia. Particulars: for parent compound still present at the end of the experiment (% of original concentration): Mixture A 1000 mg/L sample; for reduction percentage: T28 vs T0; for RR at T28 (Relative Ratio): after 28 days RBT; for RR at T0 (Relative Ratio, area counts of compound / internal standard) / RR at T0 (Relative Ratio): start of RBT.

Data set [2] has the same test system. The data set can be described thus: Targeted UHPLC-qToF qualitative analysis of RBT samples of mixtures A and B. The arrangement: species or system Aspidisca cicada, Zoothamnium, Rotiferi, Euglyphia. Particulars: Mixture A 1000 mg/L.
Data set [3] concerns microfauna of the OECD 301F ready biodegradability test. The data set can be described thus: Targeted suspect screening and semi-quantitative UHPLC-qToF analysis of OECD 301F samples of mixtures C and D. Particulars: in Mixture D 75 mg/L.
Where [4] appears, read: component in Mixture A at 50 mg/L.
[5] abbreviates: component in Mixture A at 100 mg/L.
[6] abbreviates: component in Mixture A at 1000 mg/L.

For the molecule `CN(Cc1cc(Br)cc(Br)c1N)C1CCCCC1` [Bromhexine (3), Bromhexine, reference compound], the “parent compound still present at the end of the experiment” value in data set [1] (Mixture A 50 mg/L sample, 28 days) came to 6%; in data set [1] (Mixture A 100 mg/L sample, 28 days), 12%. Moreover, the “parent compound still present at the end of the experiment (% of original concentration)” value in data set [1] (28 days) worked out at 12%. Moreover, the reduction percentage in data set [1] (setting [4]) is reported as 94% reduction; in data set [1] (setting [5]), 88% reduction; in data set [1] (pure Bromhexine at 0.7 mg/L), 46%; in data set [1] (pure Bromhexine at 0.7 mg/L, listed as Bromhexins) it was 46% reduction. In addition, the “RR at T28 (Relative Ratio)” value in data set [1] (setting [4]) is given as “RR at T28 0.004”; in data set [1] (setting [5]), “RR at T28 0.012”; in data set [1] (setting [6]), “RR at T28 0.054”; in data set [1] (pure Bromhexine at 0.7 mg/L), “RR at T28 9.542”. Moreover, the “RR at T0 (Relative Ratio, area counts of compound / internal standard)” value in data set [1] (setting [4]) was “RR at T0 0.064”. Besides, the entries for the “RR at T0 (Relative Ratio)” value in data set [1] (setting [5]), in data set [1] (setting [6]) and in data set [1] (pure Bromhexine at 0.7 mg/L) were “RR at T0 0.102”, “RR at T0 0.432” and “RR at T0 17.826”, respectively. In data set [2], the “presence after 28 days under the RBT conditions” value is “still present after 28 days”.

For `OC[C@@H](O)C(O[C@H]1O[C@H](CO)[C@@H](O)[C@H](O)[C@H]1O)[C@H](O)[C@@H](O)CO` (stereo partly drawn) [Maltitol (2), maltitol], the “parent compound still present at the end of the experiment (% of original concentration)” value in data set [1] (28 days) was 62%. Also, in data set [1] (Mixture A, samples at 50 mg/L and 100 mg/L, 28 days), the “degradation of the component (in words)” value was “fully biodegraded”. In data set [1] (setting [4]), the reduction percentage was 100% reduction; the “RR at T28 (Relative Ratio)” value was “RR at T28 0.000”; the “RR at T0 (Relative Ratio, area counts of compound / internal standard)” value is on record as “RR at T0 2.801”. In addition, in data set [1] (setting [5]), the reduction percentage is 100% reduction, the “RR at T28 (Relative Ratio)” value is “RR at T28 0.000” and the “RR at T0 (Relative Ratio)” value was “RR at T0 4.932”. For the same molecule, in data set [1] (setting [6]), the reduction percentage was found to be 38% reduction, the “RR at T28 (Relative Ratio)” value is given as “RR at T28 4.344” and the “RR at T0 (Relative Ratio)” value is listed as “RR at T0 7.049”.

As to `OC[C@@H]1O[C@](CO)(O[C@@H]2O[C@H](CO)[C@H](O)[C@H](O)[C@H]2O)[C@@H](O)[C@@H]1O` [Sucrose (4), Sucrose], the “detection on the 28th day (suspect screening)” value (from here on “detection on the 28th day”) in data set [3] is “no more detectable”.

Consider `O=c1cc(-c2ccc(O)cc2)oc2cc(O)cc(O)c12` [apigenin], for which the “detection on the 28th day” value in data set [3] is “no more detectable”.

`O=C1C[C@@H](c2ccc(O[C@@H]3O[C@H](CO)[C@@H](O)[C@H](O)[C@H]3O)cc2)Oc2cc(O)ccc21` [liquiritin]: the “detection on the 28th day” value in data set [3] is reported as “no more detectable”.
